Results of unrelated studies side by side (data: NIAID ChemDB).

Shared fields: enzyme or target tests

ICn is the concentration giving n% inhibition.

smiles | read by | strain | target | dose | conditions | agent | endpoint | changes | result
CO[P@](=O)(c1cc(C)cc(/C=C/C#N)c1)c1c(C(N)=O)[nH]c2ccc(Cl)cc12 | - | - | Reverse transcriptase | - | - | HIV | IC50 | - | <0.343 µM
CCCCCCCCC[C@@H]1C[C@@H]2CCC3=C(C(=O)O[C@H](C)CCCCC[C@@H]4C[C@@H]5CC[C@@H]6C[C@H](C)NC(=[N+]65)N4)[C@@H](C)NC(=[N+]32)N1 | ELISA | NL4-3 | Nef | 5 µM | - | HIV-1 | inhibition | - | 84.2%
Cc1cccc(C)c1OCC(=O)N[C@@H](Cc1ccccc1)[C@H](O)CN1CC[C@@H](Sc2ccncc2)C[C@H]1C(=O)NC(C)(C)C | fluorescence | - | Protease | - | - | HIV | fold resistance | PR-V32I A71V | 10.9
CCOC(=O)C(C(=O)OCC)c1cn(Cc2cc(F)ccc2F)c2ccc(F)cc12 | strand transfer / fluorescence | - | Integrase | - | - | HIV-1 | fold resistance | G140S | 1
CC(C)[C@H](NC(=O)c1ccc2ccccc2n1)C(=O)N[C@@H](Cc1ccccc1)[C@H](O)CN1CC[C@@H](SCc2cccnc2)C[C@H]1C(=O)NC(C)(C)C | fluorescence | - | Protease | - | - | HIV-2 | Ki | - | 0.000049 µM
CC[C@H](C)[C@@H](NC(=O)[C@@H](C[C@H](O)[C@H](CC(C)C)NC(=O)[C@H](Cc1cnc[nH]1)NC(=O)[C@H](Cc1ccccc1)NC(=O)[C@@H]1CCCN1C(=O)[C@@H](N)Cc1cnc[nH]1)C(C)C)C(=O)N[C@@H](Cc1cnc[nH]1)C(=O)O | HPLC | - | Protease | - | pH 7.0 | HIV-2 | Ki | - | >1 µM
C=CCOC(=O)C1=C(C)NC(N)=[N+]2[C@H](C[C@@H](O)CCCCCCOCc3ccccc3)CC[C@H]12 | ELISA | NL4-3 | Nef | 5 µM | - | HIV-1 | inhibition | - | 102.4%
CC[C@H]1C(=O)Nc2ccc(F)cc2N1C(=O)OC(C)C | nucleotide incorporation / radiometric | - | Reverse transcriptase | - | - | HIV | fold resistance | RT-N137H | 1
CCOC(=O)C(C(=O)OCC)c1cn(S(=O)(=O)c2ccc(C)cc2)c2ccc(NC(=O)c3cc(F)c(F)c(F)c3)cc12 | strand transfer / fluorescence | - | Integrase | - | - | HIV-1 | fold resistance | G140S | 1
Cc1cn([C@H]2C=C[C@@H](COP(=O)(O)OP(=O)(O)OP(=O)(O)O)O2)c(=O)[nH]c1=O | nucleotide incorporation / radiometric | - | Reverse transcriptase | - | - | HIV-1 | fold resistance | RT-I135A | 0.8
c1ccc(C2SCc3nc4ccccc4n32)cc1 | - | - | Reverse transcriptase | - | - | HIV-1 | fold resistance | RT-L100I | ~2
O=S1(=O)N(Cc2cccc(I)c2)[C@H](COc2ccccc2)[C@H](O)[C@@H](O)[C@@H](COc2ccccc2)N1Cc1cccc(I)c1 | - | - | Protease | - | - | HIV-1 | fold resistance | PR-V82A | 258
CCOC(=O)C(C(=O)OCC)c1cn(S(=O)(=O)c2ccc(C)cc2)c2ccc(NC(=O)c3cccc(C)c3O)cc12 | strand transfer / fluorescence | - | Integrase | - | - | HIV-1 | fold resistance | G140S | 1
CCCCCCCCC[C@@H]1C[C@@H]2CC[C@H]3C(C(=O)OC(C)(C)C)=C(C)NC(=[N+]23)N1 | ELISA | NL4-3 | Nef | - | - | HIV-1 | IC50 | - | <5 µM
CNC(=O)[C@@H](NC(=O)[C@H](OCc1ccccc1)[C@H](O)[C@@H](O)[C@@H](OCc1ccccc1)C(=O)N[C@H]1c2ccccc2C[C@H]1O)C(C)C | - | - | Protease | - | - | HIV | fold resistance | PR-G48V V82A I84V L90M | 246
CC(C)=CCOc1cc(NC(=S)c2ccoc2C)ccc1Cl | nucleotide incorporation / radiometric | - | Reverse transcriptase | - | - | HIV | IC50 | RT-N137E | 0.032 µM
COC(O)/C=C/c1ccc2c(c1)c(C(=O)/C=C1\OC(C)(C)OC1=O)cn2Cc1ccc(F)cc1 | strand transfer / fluorescence | - | Integrase | - | - | HIV-1 | fold resistance | Y143R | 1
Cc1cn([C@@H]2O[C@H](CO[Si](C)(C)C(C)(C)C)[C@@]3(OS(=O)(=O)C=C3N)[C@H]2O[Si](C)(C)C(C)(C)C)c(=O)[nH]c1=O | nucleotide incorporation / radiometric | - | Reverse transcriptase | - | - | HIV | IC50 | RT-N137Q | 0.66 µM
CC1(C)OC(=O)/C(=C/C(=O)c2c[nH]c3ccc(Br)cc23)O1 | strand transfer / fluorescence | - | Integrase | - | - | HIV-1 | fold resistance | G140S | 0.8
O=S1(=O)N(Cc2ccc(CO)cc2)[C@H](COc2ccccc2)[C@H](O)[C@@H](O)[C@@H](COc2ccccc2)N1Cc1ccc(CO)cc1 | - | - | Protease | - | - | HIV | fold resistance | PR-V82A I84V L90M | 37.7
C=CCOC(=O)C1=C(CCCCC[C@@H](C)O[Si](C)(C)C(C)(C)C)NC2=[N+]3[C@H](CC[C@@H]13)C[C@H](C)N2 | ELISA | NL4-3 | Nef | 5 µM | - | HIV-1 | inhibition | - | 95.8%

Again, the opening 3 rows:

smiles	read by	strain	target	dose	conditions	agent	endpoint	changes	result
CO[P@](=O)(c1cc(C)cc(/C=C/C#N)c1)c1c(C(N)=O)[nH]c2ccc(Cl)cc12	-	-	Reverse transcriptase	-	-	HIV	IC50	-	<0.343 µM
CCCCCCCCC[C@@H]1C[C@@H]2CCC3=C(C(=O)O[C@H](C)CCCCC[C@@H]4C[C@@H]5CC[C@@H]6C[C@H](C)NC(=[N+]65)N4)[C@@H](C)NC(=[N+]32)N1	ELISA	NL4-3	Nef	5 µM	-	HIV-1	inhibition	-	84.2%
Cc1cccc(C)c1OCC(=O)N[C@@H](Cc1ccccc1)[C@H](O)CN1CC[C@@H](Sc2ccncc2)C[C@H]1C(=O)NC(C)(C)C	fluorescence	-	Protease	-	-	HIV	fold resistance	PR-V32I A71V	10.9

Rows are shuffled and stem from different studies. Fold resistance has wild type as its base. An empty or dashed field is not shown. Inhibition is in % at the dose shown (toxicity tests: loss of growth or viability).